Source: paper PMC8000184, “Structural Insights into a Bifunctional Peptide Methionine Sulfoxide Reductase MsrA/B Fusion Protein from Helicobacter pylori” (Antioxidants, 2021)

Legend:
[1] = test system: CN(C)c1ccc(N=Nc2ccc(S(=O)(=O)N[C@@H](CC[S@@+](C)[O-])C(=O)O)cc2)cc1; experiment: purified protein; details: 20 mM DTT, 50 mM sodium phosphate pH 7.5, 50 mM NaCl, 37 °C
[2] = test system: CN(C)c1ccc(N=Nc2ccc(S(=O)(=O)N[C@@H](CC[S@+](C)[O-])C(=O)O)cc2)cc1; experiment: purified protein; details: 20 mM DTT, 50 mM sodium phosphate pH 7.5, 50 mM NaCl, 37 °C

Row | Substance | Km [1] [mM] | kcat [1] [s⁻¹] | kcat/Km [1] [M⁻¹ s⁻¹] | Km [2] [mM] | kcat [2] [s⁻¹] | kcat/Km [2] [M⁻¹ s⁻¹]
1 | HpMsrAB (WT) (Helicobacter pylori 26695; D197A) | 0.06 ± 0.02 | 0.0733 | 1220 | 0.15 ± 0.04 | 0.102 | 683
2 | HpMsrAB (WT) (Helicobacter pylori 26695; D197A/E193A) | 0.05 ± 0.02 | 0.05 | 1000 | 0.12 ± 0.05 | 0.095 | 783
3 | HpMsrAB (WT) (Helicobacter pylori 26695; E193A) | 0.06 ± 0.02 | 0.0783 | 1300 | 0.14 ± 0.06 | 0.108 | 767
4 | HpMsrAB (WT) (Helicobacter pylori 26695; E339A) | 0.02 ± 0.01 | 0.045 | 2250 | 0.04 ± 0.01 | 0.0583 | 1470
5 | HpMsrAB (WT) (Helicobacter pylori 26695; Y343F) | 0.03 ± 0.02 | 0.0867 | 2880 | 0.12 ± 0.02 | 0.0967 | 800
